PubChem BioAssay AID1259414 – Drosophila RNAi Screening Center | 2018

- Assay: 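Fly genes that alter Wolbachia amount inside host cells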 (primary screen)
- System: Drosophila JW18 cells infected with Wolbachia
- Reagents: long dsRNA against Drosophila genes, 0.25 µg dsRNA per well of a 384-well plate
- Time to read-out: 5 days
- Treatment: cells persistently infected with Wolbachia before knock-down; no added drug
- Read-out: 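Automated imaging of bacterial rRNA staining divided by host cell count, reported as plate-normalised robust z-score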
- Direction: Wolbachia per cell robust z: higher = more Wolbachia per host cell than the plate typical
- Hit rule: 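Active if absolute robust z reaches 1.5 in two or more of three replicates, leaving out multi- or no-target dsRNAs, genes unexpressed in JW18 and A1 wells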
The screen tested about 24,000 reagents; this is a random part of those that have a named target and a result. In the full data, about 1,210 (5%) were called active. 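Inactive calls also include excluded dsRNAs with several or no targets, genes unexpressed in JW18, and well A1, regardless of score.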 No sequences are given here.

CG16903 (GeneID 31178) [DRSC18561] — Wolbachia per cell robust z, rep 1: 0.779; Wolbachia per cell robust z, rep 2: 1.25; Wolbachia per cell robust z, rep 3: 1.54; outcome: inactive
CG9444 (GeneID 41175) [DRSC16493] — Wolbachia per cell robust z, rep 1: -0.197; Wolbachia per cell robust z, rep 2: -6.92; Wolbachia per cell robust z, rep 3: -0.827; outcome: inactive
CG34134 (GeneID 4379889) [DRSC38696] — Wolbachia per cell robust z, rep 1: -0.819; Wolbachia per cell robust z, rep 2: 0.0469; Wolbachia per cell robust z, rep 3: 0.563; outcome: inactive
mamo (GeneID 32353) [DRSC19001] — Wolbachia per cell robust z, rep 1: -0.601; Wolbachia per cell robust z, rep 2: -0.448; Wolbachia per cell robust z, rep 3: 0.033; outcome: inactive
mamo (GeneID 32353) [DRSC19370] — Wolbachia per cell robust z, rep 1: 0.495; Wolbachia per cell robust z, rep 2: -0.0692; Wolbachia per cell robust z, rep 3: 0.459; outcome: inactive
mamo (GeneID 32353) [DRSC19371] — Wolbachia per cell robust z, rep 1: -1.46; Wolbachia per cell robust z, rep 2: 1.01; Wolbachia per cell robust z, rep 3: -3.52; outcome: inactive
mamo (GeneID 32353) [DRSC19372] — Wolbachia per cell robust z, rep 1: -0.108; Wolbachia per cell robust z, rep 2: 0.591; Wolbachia per cell robust z, rep 3: -0.344; outcome: inactive
mamo (GeneID 32353) [DRSC23035] — Wolbachia per cell robust z, rep 1: -1.2; Wolbachia per cell robust z, rep 2: -2.71; Wolbachia per cell robust z, rep 3: -1.98; outcome: active
mamo (GeneID 32353) [DRSC25810] — Wolbachia per cell robust z, rep 1: -1.77; Wolbachia per cell robust z, rep 2: -3.58; Wolbachia per cell robust z, rep 3: -2.79; outcome: active
mamo (GeneID 32353) [DRSC26998] — Wolbachia per cell robust z, rep 1: -1.57; Wolbachia per cell robust z, rep 2: -0.651; Wolbachia per cell robust z, rep 3: -1.11; outcome: inactive
mamo (GeneID 32353) [DRSC29723] — Wolbachia per cell robust z, rep 1: -1.42; Wolbachia per cell robust z, rep 2: 0.00105; Wolbachia per cell robust z, rep 3: -10.1; outcome: inactive
wrd (GeneID 42169) [DRSC16344] — Wolbachia per cell robust z, rep 1: 0.712; Wolbachia per cell robust z, rep 2: -4.27; Wolbachia per cell robust z, rep 3: 1.33; outcome: inactive
wrd (GeneID 42169) [DRSC23189] — Wolbachia per cell robust z, rep 1: 0.319; Wolbachia per cell robust z, rep 2: 0.949; Wolbachia per cell robust z, rep 3: 1.59; outcome: inactive
wrd (GeneID 42169) [DRSC25929] — Wolbachia per cell robust z, rep 1: 0.216; Wolbachia per cell robust z, rep 2: 0.146; Wolbachia per cell robust z, rep 3: 0.211; outcome: inactive
